Compound potency records, mixed from different reports. Data source: NIAID ChemDB in PubChem.

Shared fields: tests in culture; agent: Mycobacterium tuberculosis

Percent inhibition refers to the dose given; in toxicity tests it is the harm to the cells.

SMILES | strain or isolate | method | measure | tested at | value
O=C1CC(c2ccccc2)Oc2cc(F)ccc21 | - | - | EC50 | - | >12.5 µg/mL
O=c1[nH]c2cc(Cl)c(Cl)cc2o1 | H37Rv | BACTEC | MIC bound | - | >12.5 µg/mL
O=c1c2ccccc2oc2ccccc12 | H37Rv | - | MIC | - | >100 µg/mL
COc1cc(N=Nc2cc(C)c(N=Nc3cc(S(=O)(=O)O)ccc3S(=O)(=O)O)cc2OC)c(C)cc1N=Nc1ccc(NC(=O)c2ccc(N)cc2)cc1C | H37Rv | BACTEC | MIC bound | - | >12.5 µg/mL
Cc1ccc(C(=O)C(=O)N(C)c2ccccc2)cc1 | H37Rv | - | MIC | - | 100 µg/mL
O=C1Nc2cnc(Cl)nc2Nc2ccc(Cl)cc21 | H37Rv | BACTEC | inhibition | 12.5 µg/mL | 0%
COc1ccc(C2Oc3c(I)cccc3C(=O)C2O)cc1 | H37Rv | - | inhibition | 12.5 µg/mL | 6%
CC1CCN(C(=S)S)CC1.CC1CCNCC1 | INH-r | - | MIC | - | 0.4 µg/mL
CCCCCCCCCCCNCCNC[C@@H](C)O | - | - | MIC | - | 50 µM
O=C(/C=N/O)Nc1ccccc1C(=O)O | H37Rv | - | MIC | - | 50 µg/mL
c1ccc(C(NCCNCc2ccc3c(c2)OCO3)c2ccccc2)cc1 | - | - | MIC | - | 50 µM
CN(C)c1ccc2nc3ccc(=[N+](C)C)c([N+](=O)[O-])c-3sc2c1 | H37Rv | BACTEC | MIC | - | ≥12.5 µg/mL
O=C(O)CCCCC1CCCCC1 | H37Rv | - | MIC | - | 25 µg/mL
c1ccc2c(c1)CC(NCCNC1CCCCCCC1)C2 | - | - | MIC | - | 25 µM
O=C1c2ccccc2OC(c2cccc(Cl)c2)C1O | H37Rv | - | EC50 | - | <12.5 µg/mL
CC(=O)OCC1OC(OC2(COC(C)=O)OC(COC(C)=O)C(OC(C)=O)C2OC(C)=O)C(OC(C)=O)C(OC(C)=O)C1OC(C)=O | H37Rv | - | MIC | - | >100 µg/mL
CC(=O)Nc1nccnc1C(N)=O | H37Rv | BACTEC | MIC | - | ≥12.5 µg/mL
CCN(CC)Cc1cc(CN(CC)CC)c(O)c(Nc2c3ccc(Cl)cc3nc3ccc(OC)cc23)c1 | H37Rv | - | MIC | - | >100 µg/mL
O=[N+]([O-])c1ccc(/C=C/c2cc(N(CCO)CCO)c3ccccc3n2)cc1 | H37Rv | resazurin | inhibition | 6.25 µg/mL | 2%
COc1ccc(CNCCNCc2ccccc2Sc2ccccc2CO)cc1OC | - | - | MIC | - | 6.25 µM
CC(=O)OC1CC2Cc3ccccc3C3(O)COC213 | H37Rv | BACTEC | MIC bound | - | ≤12.5 µg/mL
O=C1C[C@@H](c2ccc(O)cc2)Oc2c1c(O)cc(O[C@@H]1O[C@H](CO)[C@@H](O)[C@H](O)[C@H]1O)c2[C@H]1C(=O)c2c(O)cc(O)cc2O[C@@H]1c1ccc(O)cc1 | H37Rv | - | inhibition | 12.5 µg/mL | 0%
CN(CC(N)=O)c1ccccc1 | H37Rv | - | MIC | - | >100 µg/mL
Fc1ccc(CCNCCNCCc2ccccc2F)cc1 | - | - | MIC | - | 25 µM
CN(C)c1ccc(/C=N/NC(=O)c2cnc3ccccc3c2)cc1 | H37Rv | BACTEC | MIC bound | - | >12.5 µg/mL
Cc1[nH]n(-c2ccc(S(=O)(=O)O)cc2)c(=O)c1N=Nc1ccc2[nH]c(=S)[nH]c2c1 | H37Rv | - | MIC | - | 50 µg/mL
CC=CCOc1cc(NC(=S)c2ccoc2C)ccc1OC | H37Rv | resazurin | inhibition | 6.25 µg/mL | -1%
C[C@@H]1[C@H]2C[C@@H](C[C@H]1NCCNC1C3CC4CC(C3)CC1C4)C2(C)C | - | - | MIC | - | 12.5 µM
CCCCCCCCCCCCCCCCCCNCCNC(C)CCc1ccccc1 | - | - | MIC | - | 50 µM
COC(=O)Nc1cccc(-c2nc3ccc(NC(=O)OC)cc3c(=O)n2-c2ccccc2)c1 | H37Rv | BACTEC | inhibition | 12.5 µg/mL | -2%
CC1CC/C(=N/NC(N)=O)CC1C | H37Rv | - | MIC | - | 100 µg/mL
O=C(/C=C/c1ccccc1)c1ccccc1O | - | - | EC50 | - | <12.5 µg/mL
Cl.NCc1cccs1 | H37Rv | - | MIC | - | 800 µg/mL
O=C(NNS(=O)(=O)c1ccccc1)c1ccc([N+](=O)[O-])cc1 | H37Rv | BACTEC | MIC | - | ≥12.5 µg/mL
CO[C@H]1/C=C/O[C@@]2(C)Oc3c(C)c(O)c4c(O)c(c5c(c4c3C2=O)NC2(CCN(CC(C)C)CC2)N=5)=NC(=O)/C(C)=C\C=C\[C@H](C)[C@H](O)[C@@H](C)[C@@H](O)[C@@H](C)[C@H](OC(C)=O)[C@@H]1C | 2624 (rifampin-sensitive) | - | MIC | - | 0.025 µg/mL
Cc1cc(N=C2C=CC(=[N+](C)C)C=C2)c(N)cc1N | H37Rv | BACTEC | MIC | - | 12.5 µg/mL
C1CC[N+]2(CC1)CCCCC2.[Br-] | H37Rv | - | MIC | - | >100 µg/mL
CC(C)c1ccc2c(c1)CC[C@H]1[C@](C)(CNCCNCCc3ccccc3)CCC[C@]21C | - | - | MIC | - | 12.5 µM
O=C1C(=O)c2c(nc3ccccn23)-c2ccccc21 | H37Rv | resazurin | inhibition | 6.25 µg/mL | 97%
CC(C)=CCC/C(C)=C/CNCCNCCNc1ccccc1 | - | - | MIC | - | 50 µM
CCCCCC[N+]12CC=C3COC(=O)C(C)(O)C(C)(O)C(C)C(=O)OC(CC1)C32.[Br-] | H37Rv | BACTEC | MIC | - | ≥12.5 µg/mL
COc1cccc(CNCCNC[C@]2(C)CCC[C@]3(C)c4ccc(C(C)C)cc4CC[C@@H]23)c1OC | - | - | MIC | - | 25 µM
OCc1ccccc1Sc1ccccc1CNCCNCC1(O)CCCCC1 | - | - | MIC | - | 50 µM
CCOC(=O)c1c(O)cc2ccccc2c1O | H37Rv | - | MIC | - | >100 µg/mL
C[C@H](NCCNCCC(c1ccccc1)c1ccccc1)C1CCCCC1 | - | - | MIC | - | 6.25 µM
O=C(CCC(=O)Nc1ccc2[nH]c3ccccc3c(=O)c2c1)Nc1ccc2[nH]c3ccccc3c(=O)c2c1 | H37Rv | BACTEC | MIC bound | - | >12.5 µg/mL
CCOC(=O)NCCCCC(=O)O | H37Rv | - | MIC | - | >100 µg/mL
O=C(O)c1ccc(O)c(C(=O)/C=C/c2cccc(I)c2)c1 | - | - | EC50 | - | >12.5 µg/mL
OCC(O)CN(Cc1ccccc1)c1ccccc1 | H37Rv | - | MIC | - | >100 µg/mL
Cc1ccc(C)c(N=Nc2sc(N)nc2-c2ccccc2)c1 | H37Rv | BACTEC | inhibition | 6.25 µg/mL | 91%
CCOC(=O)CNN | H37Rv | - | MIC | - | >100 µg/mL
CO[C@H]1/C=C/O[C@@]2(C)Oc3c(C)c(O)c4c(=O)c(c5oc6cc(N7CCN(CC(C)C)CC7)cc(=O)c6nc5c4c3=C2O)NC(=O)/C(C)=C\C=C\[C@H](C)[C@H](O)[C@@H](C)[C@@H](O)[C@@H](C)[C@H](OC(C)=O)[C@@H]1C | 2624 (rifampin-sensitive) | - | MIC | - | 0.003 µg/mL
CCCCCCCCCCCCCCN | H37Rv | - | MIC | - | 25 µg/mL
C1CCC2C(C1)CCCN2CCNCC12CC3CC(CC(C3)C1)C2 | - | - | MIC | - | 18.8 µM
c1ccc2c(c1)Sc1ccccc1S2 | H37Rv | - | MIC | - | >100 µg/mL
CSC(=S)N(C)NC(=O)c1cccc(C(=O)NN(C)C(=S)SC)n1 | H37Rv | resazurin | MIC bound | - | >6.25 µg/mL
c1co[c]([Ge]([c]2ccco2)([c]2ccco2)[c]2ccco2)c1 | H37Rv | - | MIC | - | >100 µg/mL
CC(=Nc1ccc(Cl)cc1N)c1c(O)cc(C)oc1=O | H37Rv | BACTEC | inhibition | 12.5 µg/mL | 39%
Cc1nc2c([N+](=O)[O-])cccc2c2ccccc12 | H37Rv | - | MIC | - | >100 µg/mL
CN1CCN(C(=O)/N=N/C(=O)N2CCN(C)CC2)CC1 | H37Rv | BACTEC | MIC bound | - | >12.5 µg/mL
CCCCC(CC)CN1CN(CC(CC)CCCC)CC(C)(NCCNC[C@@H](C)O)C1 | - | - | MIC | - | 25 µM
COC(=O)CC(C(=O)OC)N1CCN(C(CC(=O)OC)C(=O)OC)CC1 | H37Rv | - | MIC | - | >100 µg/mL

Repeating the final 6 entries:

SMILES,strain or isolate,method,measure,tested at,value
c1co[c]([Ge]([c]2ccco2)([c]2ccco2)[c]2ccco2)c1,H37Rv,-,MIC,-,>100 µg/mL
CC(=Nc1ccc(Cl)cc1N)c1c(O)cc(C)oc1=O,H37Rv,BACTEC,inhibition,12.5 µg/mL,39%
Cc1nc2c([N+](=O)[O-])cccc2c2ccccc12,H37Rv,-,MIC,-,>100 µg/mL
CN1CCN(C(=O)/N=N/C(=O)N2CCN(C)CC2)CC1,H37Rv,BACTEC,MIC bound,-,>12.5 µg/mL
CCCCC(CC)CN1CN(CC(CC)CCCC)CC(C)(NCCNC[C@@H](C)O)C1,-,-,MIC,-,25 µM
COC(=O)CC(C(=O)OC)N1CCN(C(CC(=O)OC)C(=O)OC)CC1,H37Rv,-,MIC,-,>100 µg/mL

MIC bound comes from a single tested concentration. ECn is the concentration giving n% inhibition of infection, replication or growth. Blank or dashed fields: not listed here. Neighbouring rows are from separate reports.